The numbers were not newly measured in paper PMC10531517, “Rational Design of Novel Peptidomimetics against Influenza A Virus: Biological and Computational Studies” (International Journal of Molecular Sciences, 2023), which cites them from elsewhere.

Where only a bound is given, the exact number is not on record here.

In the series the test system is A/Parma/24/09 H1N1 virus. Also on record: method as in Scala et al. (2017) [23]. To be noted: reference peptides; ref Scala et al. (2017) [23]; cited from earlier work.

Consider SLDC [Peptide 1], for which the “SI (ratio of CC50 and EC50)” value is reported as >5.4 × 10^6.
As to SKHS [Peptide 2], the “SI (ratio of CC50 and EC50)” value was >5.2 × 10^8.
